Paper PMC9573077, “Anti-Ovarian Cancer Conotoxins Identified from Conus Venom” (2022)
Where two headings read alike, the source gives them in different places.

Tests used:
ID8 ovarian cancer cells = assay: Ovarian cancer cell viability assay (MTT); conditions: for Cell inhibitory rate on ID8 cells: 10 µM peptide, 72 h treatment; for IC50: read-out: IC50 against ID8 cells, 72 h treatment, three independent experiments
Nav1.4 = assay: Whole-cell patch clamp recording, blockage of voltage-gated sodium channel Nav1.4
[1] = read-out: Current inhibition at TP1 on Nav1.4, complete resting state (TP1), peptide 10 µM, CHO cells, mean and standard deviation of three parallel experiments
[2] = read-out: Current inhibition at TP2 on Nav1.4, semi-activated state (TP2), peptide 10 µM, CHO cells, mean and standard deviation of three parallel experiments

| SMILES | Cell inhibitory rate on ID8 cells (ID8 ovarian cancer cells) [%] | IC50 (ID8 ovarian cancer cells) [µM] | inhibition (Nav1.4; [1]) [%] | inhibition (Nav1.4; [2]) [%] |
| --- | --- | --- | --- | --- |
| CC[C@H](C)[C@@H]1NC(=O)[C@H](CCC(N)=O)NC(=O)CNC(=O)[C@H]([C@@H](C)O)NC(=O)CNC(=O)CNC(=O)[C@@H]2CSSC[C@H](NC(=O)[C@H](CCC(=O)O)NC(=O)[C@H](CC(N)=O)NC(=O)[C@H](CCCCNC(C)=O)NC(=O)[C@H]([C@@H](C)CC)NC1=O)C(=O)N[C@@H](CCCCN)C(=O)N[C@@H]([C@@H](C)O)C(=O)N[C@H](C(=O)N[C@@H](Cc1c[nH]cn1)C(=O)NCC(=O)N[C@@H](CCCCN)C(=O)N[C@@H](CCCCNC(C)=O)C(=O)N[C@H](C(=O)N[C@H](C(=O)N[C@@H](CCCCN)C(=O)O)[C@@H](C)O)C(C)C)CSSC[C@H](NC(=O)[C@H](CCSC)NC(=O)[C@H](CCC(N)=O)NC(=O)[C@@H](N)CCC(N)=O)C(=O)NCC(=O)N[C@@H](CCCNC(=N)N)C(=O)N2 | 19.39 | 112 |  |  |
| CC(C)[C@@H]1NC(=O)[C@H](CC(=O)O)NC(=O)[C@H](Cc2c[nH]c3ccccc23)NC(=O)[C@H](CO)NC(=O)[C@@H]2CSSC[C@@H](C(=O)NCC(=O)O)NC(=O)[C@@H]3CSSC[C@H](NC(=O)[C@H](CO)NC(=O)[C@@H]4CCCN4C(=O)[C@H](Cc4c[nH]cn4)NC(=O)[C@H](CC(=O)O)NC(=O)[C@H](CSSC[C@H](N)C(=O)N2)NC1=O)C(=O)N[C@@H]([C@@H](C)O)C(=O)N3 | 45.08 | 24.3 | 3.17 | 24.3 |
| CC(C)C[C@@H]1NC(=O)[C@H](Cc2c[nH]cn2)NC(=O)[C@H](CC(=O)O)NC(=O)[C@@H]2CSSC[C@H](NC1=O)C(=O)N[C@@H](CO)C(=O)N[C@H]1CSSC[C@H](N)C(=O)N[C@@H](CSSC[C@@H](C(=O)NCC(=O)N[C@@H](CO)C(=O)O)NC1=O)C(=O)N[C@@H](Cc1c[nH]cn1)C(=O)N[C@@H](Cc1c[nH]c3ccccc13)C(=O)N[C@@H](CC(N)=O)C(=O)N[C@@H](Cc1c[nH]c3ccccc13)C(=O)N2 | 23.79 | 55 | 4.62 | 23.6 |
